According to paper PMC6072100, “Exploring the links between peptoid antibacterial activity and toxicity” (MedChemComm, 2017):
Square brackets hold non-standard residues; d marks the D form. Peptide text beside a SMILES is read from it. N(4-F-Bzl)Gly = O=C(O)CNCc1ccc(F)cc1; Gly(N-2-aminoethyl) = NCCNCC(=O)O; Nspe = C[C@H](NCC(=O)O)c1ccccc1; Nphe = O=C(O)CNCc1ccccc1; Nlys = NCCCCNCC(=O)O

Assays:
Format in all cases: cell-based
[1] = test system: Staphylococcus epidermidis (laboratory strain from clinical isolate); conditions: for Selectivity Index HaCaT, S. epidermidis: ED50 HaCaT / MIC S. epidermidis; for Selectivity Index HepG2, S. epidermidis: ED50 HepG2 / MIC S. epidermidis; for Average selectivity S. epidermidis: average of selectivity to HaCaT and HepG2, selectivity = toxicity/activity
Experimental: (§1) Escherichia coli K-12 wild-type strain (W3110/ATCC27325, F^–, λ^–, rpoS(Am), rph-1, Inv(rrnD-rrnE)), Pseudomonas aeruginosa PA01 (ATCC 15692) Staphylococcus aureus (3R7089 strain Oxford/ATCC9144) and Staphylococcus epidermidis (laboratory strain from clinical isolate) were selected for bacteriological studies as representative Gram-negative (E. coli and P. aeruginosa) and Gram-positive (S. aureus and S. epidermidis) species. Bacterial cultures were prepared by streaking bacterial strains onto LB agar plates with an inoculation loop and incubated overnight at 37 °C. A single colony was selected and placed in 5 mL of Iso-sensitest broth (Oxoid, ThermoScientific) and incubated with shaking for 16–18 h at 37 °C to provide liquid cultures for testing.
(§2) MIC values were obtained according to the protocol described by J. M. Andrews et al.[58] and were conducted in 96-well plates (Sarstedt). Bacteria were grown from overnight cultures in Iso-sensitest broth to an A650nm of 0.07 equivalent to a 0.5 MacFarland standard (240 μM BaCl2 in 0.18 M H2SO4). This culture was diluted ten-fold with Iso-sensitest broth before use. Peptoids were initially dissolved in DMSO (5 mM) and diluted further in Iso-sensitest broth to achieve a concentration range of 4–200 μM using 2-fold serial dilutions. 50 μl of inoculum and 50 μl of peptoid solution were added to each test well (final concentration range of 2–100 μM). Experiments were performed in triplicate. A positive control for bacterial growth contained only the inoculum and Iso-sensitest broth. Other controls contained the inoculum and serial dilutions of ampicillin (from 250 μg mL^–1 to 2 μg mL^–1), serial dilutions of DMSO and the inoculum to confirm no inhibitory effect on bacterial growth, and Iso-sensitest broth alone as a sterile control. […] Quantitative data was attained from absorbance values using a Biotek Synergy H4 plate reader.
(§3) Antibacterial MIC determination
as §1, with “(W3110 / ATCC27325, F-, λ-,” for “(W3110/ATCC27325, F^–, λ^–,”, “Oxford / ATCC9144)” for “Oxford/ATCC9144)”, “°C.” for “°C. A single colony was selected and placed in 5 mL of Iso-sensitest broth (Oxoid, ThermoScientific) and incubated with shaking for 16–18 h at 37 °C to provide liquid cultures for testing.”
(§4) A single colony was selected and placed in 5 mL of Iso-sensitest broth (Oxoid, ThermoScientific) and incubated with shaking for 16-18 h at 37 °C to provide liquid […]
(§5) MIC values were obtained according to the protocol described by J. M. Andrews et al.1 and were conducted in 96-well plates (Sarstedt). Bacteria were grown from overnight cultures in Iso-sensitest broth to an A650nm of 0.07 equivalent to a 0.5 MacFarland standard (240 μM BaCl2 in 0.18 M H2SO4). This culture was diluted ten-fold with Iso-sensitest broth before use. Peptoids were initially dissolved in DMSO (5 mM) and diluted further in Iso-sensitest broth to achieve a concentration range of 4 – 200 µM using 2-fold serial dilutions. 50 μl of inoculum and 50 μl of peptoid solution were added to each test well (final concentration range of 2 – 100 µM). Experiments were performed in triplicate. A positive control for bacterial growth contained only the inoculum and Iso-sensitest broth. Other controls contained the inoculum and serial dilutions of ampicillin (from 250 µg/mL to 2 µg/mL), serial dilutions of DMSO and the inoculum to confirm no inhibitory effect on bacterial growth, and Iso-sensitest broth alone as a sterile control. […]
(§6) growth after incubation at 37 °C for 16 h with shaking. Quantitative data was attained from absorbance values using a Biotek Synergy H4 plate reader.

[2] = test system: Staphylococcus aureus (3R7089 strain Oxford/ATCC9144); conditions: for Selectivity Index HaCaT, S. aureus: ED50 HaCaT / MIC S. aureus; for Selectivity Index HepG2, S. aureus: ED50 HepG2 / MIC S. aureus; for Average selectivity S. aureus: average of selectivity to HaCaT and HepG2, selectivity = toxicity/activity
Experimental: as §1, §2, §3
as §1, with “(W3110 / ATCC27325, F-, λ-,” for “(W3110/ATCC27325, F^–, λ^–,”, “Oxford / ATCC9144)” for “Oxford/ATCC9144)”, “°C.” for “°C. A single colony was selected and placed in 5 mL of Iso-sensitest broth (Oxoid, ThermoScientific) and incubated with shaking for 16–18 h at 37 °C to provide liquid cultures for testing.”
as §4, §5, §6

[3] = test system: Pseudomonas aeruginosa PA01 (ATCC 15692); conditions: average of selectivity to HaCaT and HepG2; selectivity = toxicity/activity
Experimental: as §1, §2, §3
as §1, with “(W3110 / ATCC27325, F-, λ-,” for “(W3110/ATCC27325, F^–, λ^–,”, “Oxford / ATCC9144)” for “Oxford/ATCC9144)”, “°C.” for “°C. A single colony was selected and placed in 5 mL of Iso-sensitest broth (Oxoid, ThermoScientific) and incubated with shaking for 16–18 h at 37 °C to provide liquid cultures for testing.”
as §4, §5, §6

Structure (SMILES)	Selectivity Index HaCaT, S. epidermidis [1]	Selectivity Index HepG2, S. epidermidis [1]	Selectivity Index HaCaT, S. aureus [2]	Selectivity Index HepG2, S. aureus [2]	Average selectivity S. epidermidis [1]	Average selectivity S. aureus [2]	Average selectivity P. aeruginosa [3]
C[C@@H](c1ccccc1)N(CC(N)=O)C(=O)CN(C(=O)CN(CCCCN)C(=O)CN(C(=O)CN(C(=O)CN(CCCCN)C(=O)CN(C(=O)CN(C(=O)CN(CCCCN)C(=O)CN(C(=O)CN(C(=O)CNCCCCN)[C@@H](C)c1ccccc1)[C@@H](C)c1ccccc1)[C@@H](C)c1ccccc1)[C@@H](C)c1ccccc1)[C@@H](C)c1ccccc1)[C@@H](C)c1ccccc1)[C@@H](C)c1ccccc1 [Peptoid 13, (NLysNspeNspe)4] (H-[Nlys][Nspe][Nspe][Nlys][Nspe][Nspe][Nlys][Nspe][Nspe][Nlys][Nspe][Nspe]-NH2)	20	29	10	15	–	–	–
CCCCCN(CC(=O)N(CC(=O)N(CC(=O)N(CCCCN)CC(=O)N(CC(=O)N(CC(N)=O)[C@@H](C)c1ccccc1)[C@@H](C)c1ccccc1)[C@@H](C)c1ccccc1)[C@@H](C)c1ccccc1)C(=O)CN(C(=O)CN(C(=O)CN(CCCCN)C(=O)CN(C(=O)CN(C(=O)CNCCCCN)[C@@H](C)c1ccccc1)[C@@H](C)c1ccccc1)[C@@H](C)c1ccccc1)[C@@H](C)c1ccccc1 [Peptoid 32, (NLysNspeNspe)2(NamyNspeNspe)(NLysNspeNspe)]	–	–	–	–	11	4	–
C[C@@H](c1ccccc1)N(CC(N)=O)C(=O)CN(C(=O)CN(CCCCN)C(=O)CN(C(=O)CN(C(=O)CN(CCCCN)C(=O)CN(C(=O)CN(C(=O)CNCCCCN)[C@@H](C)c1ccccc1)[C@@H](C)c1ccccc1)[C@@H](C)c1ccccc1)[C@@H](C)c1ccccc1)[C@@H](C)c1ccccc1 [Peptoid 14, (NLysNspeNspe)3] (H-[Nlys][Nspe][Nspe][Nlys][Nspe][Nspe][Nlys][Nspe][Nspe]-NH2)	> 50	> 50	> 50	> 50	> 50	> 50	–
C[C@@H](c1ccccc1)N(CC(N)=O)C(=O)CN(C(=O)CN(CCN)C(=O)CN(C(=O)CN(C(=O)CN(CCN)C(=O)CN(C(=O)CN(C(=O)CNCCN)[C@@H](C)c1ccccc1)[C@@H](C)c1ccccc1)[C@@H](C)c1ccccc1)[C@@H](C)c1ccccc1)[C@@H](C)c1ccccc1 [Peptoid 17, (NaeNspeNspe)3]	> 8	> 8	> 50	> 50	> 8	> 50	–
CCCCCNCC(=O)N(CC(=O)N(CC(=O)N(CCCCN)CC(=O)N(CC(=O)N(CC(=O)N(CCCCN)CC(=O)N(CC(=O)N(CC(=O)N(CCCCN)CC(=O)N(CC(=O)N(CC(N)=O)[C@@H](C)c1ccccc1)[C@@H](C)c1ccccc1)[C@@H](C)c1ccccc1)[C@@H](C)c1ccccc1)[C@@H](C)c1ccccc1)[C@@H](C)c1ccccc1)[C@@H](C)c1ccccc1)[C@@H](C)c1ccccc1 [Peptoid 30, (NamyNspeNspe)[(NLysNspeNspe)]3]	–	–	–	–	7	7	–
CCCCCNCC(=O)N(CC(=O)N(CC(=O)N(CCCCC)CC(=O)N(CC(=O)N(CC(=O)N(CCCCN)CC(=O)N(CC(=O)N(CC(=O)N(CCCCN)CC(=O)N(CC(=O)N(CC(N)=O)[C@@H](C)c1ccccc1)[C@@H](C)c1ccccc1)[C@@H](C)c1ccccc1)[C@@H](C)c1ccccc1)[C@@H](C)c1ccccc1)[C@@H](C)c1ccccc1)[C@@H](C)c1ccccc1)[C@@H](C)c1ccccc1 [Peptoid 31, (NamyNspeNspe)2(NLysNspeNspe)2]	–	–	–	–	19	10	–
NCCCCNCC(=O)N(CC(=O)N(CC(=O)N(CCCCN)CC(=O)N(CC(=O)N(CC(=O)N(CCCCN)CC(=O)N(CC(=O)N(CC(=O)N(CCCCN)CC(=O)N(CC(=O)N(CC(N)=O)Cc1ccc(F)cc1)Cc1ccc(F)cc1)Cc1ccc(F)cc1)Cc1ccc(F)cc1)Cc1ccc(F)cc1)Cc1ccc(F)cc1)Cc1ccc(F)cc1)Cc1ccc(F)cc1 [Peptoid 22, (NLysNpfbNpfb)4] (H-[Nlys][N(4-F-Bzl)Gly][N(4-F-Bzl)Gly][Nlys][N(4-F-Bzl)Gly][N(4-F-Bzl)Gly][Nlys][N(4-F-Bzl)Gly][N(4-F-Bzl)Gly][Nlys][N(4-F-Bzl)Gly][N(4-F-Bzl)Gly]-NH2)	–	–	–	–	–	–	2
NCCCCNCC(=O)N(CC(=O)N(CC(=O)N(CCCCN)CC(=O)N(CC(=O)N(CC(=O)N(CCCCN)CC(=O)N(CC(=O)N(CC(N)=O)Cc1ccccc1)Cc1ccccc1)Cc1ccccc1)Cc1ccccc1)Cc1ccccc1)Cc1ccccc1 [Peptoid 5, (NLysNpheNphe)3]	–	–	–	–	> 17	> 4	–
COc1ccc(CN(CC(N)=O)C(=O)CN(Cc2ccc(OC)cc2)C(=O)CN(CCCCN)C(=O)CN(Cc2ccc(OC)cc2)C(=O)CN(Cc2ccc(OC)cc2)C(=O)CN(CCCCN)C(=O)CN(Cc2ccc(OC)cc2)C(=O)CN(Cc2ccc(OC)cc2)C(=O)CN(CCCCN)C(=O)CN(Cc2ccc(OC)cc2)C(=O)CN(Cc2ccc(OC)cc2)C(=O)CNCCCCN)cc1 [Peptoid 19, (NLysNpmbNpmb)4]	–	–	–	–	–	> 24	–
NCCCCNCC(=O)N(CC(=O)N(CC(=O)N(CCCCN)CC(=O)N(CC(=O)N(CC(=O)N(CCCCN)CC(=O)N(CC(=O)N(CC(=O)N(CCCCN)CC(=O)N(CC(=O)N(CC(N)=O)Cc1ccccc1)Cc1ccccc1)Cc1ccccc1)Cc1ccccc1)Cc1ccccc1)Cc1ccccc1)Cc1ccccc1)Cc1ccccc1 [Peptoid 4, (NLysNpheNphe)4] (H-[Nlys][Nphe][Nphe][Nlys][Nphe][Nphe][Nlys][Nphe][Nphe][Nlys][Nphe][Nphe]-NH2)	–	–	–	–	> 34	> 23	–
C[C@@H](c1ccccc1)N(CC(N)=O)C(=O)CN(C(=O)CN(CCCCN)C(=O)CN(C(=O)CN(C(=O)CNCCCCN)[C@@H](C)c1ccccc1)[C@@H](C)c1ccccc1)[C@@H](C)c1ccccc1 [Peptoid 15, (NLysNspeNspe)2] (H-[Nlys][Nspe][Nspe][Nlys][Nspe][Nspe]-NH2)	–	–	–	–	> 4	–	–
C[C@@H](c1ccccc1)N(CC(N)=O)C(=O)CN(C(=O)CN(CCCCN)C(=O)CN(Cc1ccc(F)cc1)C(=O)CN(Cc1ccc(F)cc1)C(=O)CN(CCCCN)C(=O)CN(C(=O)CN(C(=O)CN(CCCCN)C(=O)CN(Cc1ccc(F)cc1)C(=O)CN(Cc1ccc(F)cc1)C(=O)CNCCCCN)[C@@H](C)c1ccccc1)[C@@H](C)c1ccccc1)[C@@H](C)c1ccccc1 [Peptoid 28, [(NLysNpfbNpfb)(NLysNspeNspe)]2]	–	–	–	–	> 78	> 39	–
NCCNCC(=O)N(CC(=O)N(CC(=O)N(CCN)CC(=O)N(CC(=O)N(CC(=O)N(CCN)CC(=O)N(CC(=O)N(CC(N)=O)Cc1ccccc1)Cc1ccccc1)Cc1ccccc1)Cc1ccccc1)Cc1ccccc1)Cc1ccccc1 [Peptoid 8, (NaeNpheNphe)3] (H-[Gly(N-2-aminoethyl)][Nphe][Nphe][Gly(N-2-aminoethyl)][Nphe][Nphe][Gly(N-2-aminoethyl)][Nphe][Nphe]-NH2)	–	–	–	–	–	> 8	–
